PubChem BioAssay AID624099, ICCB-Longwood, 2012

- Test: 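Knock-downs relieving repression by E2 of an HPV18 LCR luciferase reporter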 (primary screen)
- System: human C33A cervical carcinoma cells (HPV-negative) stably expressing BPV1 E2 and an HPV18 LCR luciferase reporter
- Reagents: siRNA pool against human genes, 40 nM
- Timing: 72 h
- Detection: 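HPV18 LCR reporter light per well, converted to plate-wise z-scores that exclude control wells, and averaged over triplicate plates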
- Direction: mean z-score and z-score: higher = stronger reporter signal, weaker E2 silencing
- Active means: 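Mean z ≥ 2 together with z ≥ 2 in two or more of the three replicates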
In all, the deposit lists about 21,000 reagents; below is an unselected part. In the full data, 497 (2.4%) got an active call. 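Higher z means weaker E2 silencing; only reporter increases were scored, and knock-downs that hurt cell survival may mask genuine repressor factors.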 Entries without a mark were called inactive. No sequences are given here.

gene	mean z-score	z-score, replicate A	z-score, replicate B	z-score, replicate C
SLC29A4P1	1.08	0.89	1.1	1.25
DPF2	-0.07	0.08	0.03	-0.3
RGS17	-0.28	-0.26	-0.05	-0.53
AMIGO3	0.48	0.77	0.02	0.65
WDR48	-0.73	-0.8	-1.27	-0.11
LILRB4	0.79	0.67	0.86	0.84
STX1A	-1.34	-1.19	-1.38	-1.45
PRM2	0.81	0.95	0.72	0.75
GK6P	-0.42	-0.27	-0.52	-0.47
RBM5	-0.08	-0.13	-0.14	0.02
TMEM115	-0.88	-0.88	-1.08	-0.67
SLC38A4	0.7	0.41	0.8	0.88
DDX17	0.1	0.02	0.12	0.15
MSH3	0.98	0.54	1.14	1.27
PTPRQ	0.27	-0.03	-0.04	0.9
PFN2	0.52	0.53	0.4	0.63
PABPC4	-0.7	-0.9	-0.69	-0.51
APOA5	1.38	1.32	1.39	1.44
PCDH19	0.28	0	0.42	0.42
ANKRD36	-0.04	-0.36	0.22	0
DIXDC1	-0.79	-1.2	-0.78	-0.39
VPS13A	0.46	0.48	0.39	0.51
CCDC122	0.79	0.74	1.33	0.3
GCN1	-0.69	-0.54	-0.83	-0.7
GRIP1	-0.88	-1.08	-0.71	-0.83
NUFIP1	-0.76	-0.6	-0.81	-0.87
ERF	0.37	0.46	0.21	0.44
SLC25A6	-0.98	-1.04	-0.9	-1
METTL17	0.23	-0.1	0.21	0.57

The list goes on; the last 8 above are carried over.
gene	mean z-score	z-score, replicate A	z-score, replicate B	z-score, replicate C
VPS13A	0.46	0.48	0.39	0.51
CCDC122	0.79	0.74	1.33	0.3
GCN1	-0.69	-0.54	-0.83	-0.7
GRIP1	-0.88	-1.08	-0.71	-0.83
NUFIP1	-0.76	-0.6	-0.81	-0.87
ERF	0.37	0.46	0.21	0.44
SLC25A6	-0.98	-1.04	-0.9	-1
METTL17	0.23	-0.1	0.21	0.57
ESYT2	-1.22	-0.98	-1.28	-1.41
HDAC10	-0.16	-0.23	-0.13	-0.12
COL16A1	1.65	1.77	1.62	1.57
PPIAP78	1.07	1.06	1.31	0.82
MIEN1	-0.41	0.22	-0.77	-0.68
SUCLA2	0.92	0.62	0.77	1.37
B2M	0.52	0.27	0.74	0.54
TUBGCP5	1.09	1.16	1.29	0.82
CEND1	-0.91	-0.55	-1.11	-1.08
H1-2	3.93 (active)	4.74	3.49	3.56
C14orf181 (retired record)	-0.02		-0.29	0.24
ZNF521	0.59	0.67	0.52	0.57
PTPMT1	-1.03	-0.79	-1.28	-1.03
RSPH3	-0.17	0.28	-0.52	-0.27
STX8	1.15	1.59	1.22	0.64
LOC389269 (retired record)	0.74	0.91	0.35	0.96
CDK20	-1.63	-2.02	-2.05	-0.83
POLR1G	0.39	0.61	0.43	0.14
OR2C1	-0.79	-0.78	-0.71	-0.88
LOC401384 (retired record)	0.88	0.65	1.45	0.53
FLOT1	0.94	1.01	1.17	0.63
CCDC9B	-0.99	-0.49	-1.12	-1.35
STK25	-0.21	-0.59	0.28	-0.32
SLC1A7	0.12	-0.16	0.29	0.24
PNRC1	0.78	1.01	0.8	0.53
PSPN	-0.03	0.05	0.04	-0.17
LINC02692	1.44	1.82	1.23	1.27
AKR7A3	-0.04	0	-0.09	-0.04
PCDHGB6	-0.77	-1.1	-0.93	-0.28
NEUROD2	-0.41	-0.69	-0.11	-0.42
ZBTB3	0.06	0.08	-0.22	0.33
SHISA4	-2.05	-2.2	-1.66	-2.3
CCDC78	-0.31	-0.17	-0.78	0.01
OPRL1	0.35	0.43	0.42	0.21
CIITA	0.13	0	0.37	0.02
ALKBH4	-1.04	-1.14	-1	-0.99
ZNF674-AS1	-0.42	-0.35	-0.77	-0.15
TELO2	-0.31	-0.21	-0.31	-0.39
HOXB1	0.7	0.81	0.52	0.76
LOC338999 (retired record)	-1.55	-1.54	-1.59	-1.54
TMEM161B	-0.14	-0.08	-0.55	0.22
P4HB	-0.31	-0.45	0.22	-0.7
ZNF575	-0.35	-0.4	-0.15	-0.5
CCDC6	1.02	1.03	0.76	1.28
